Amino acid sequences for entries named in this document (tags omitted).
UniProt P59637, whole entry, looked up: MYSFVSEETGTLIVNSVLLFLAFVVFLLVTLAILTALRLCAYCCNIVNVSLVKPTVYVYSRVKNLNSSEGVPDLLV

The first assay addresses T1, SARS CoV E protein (Severe acute respiratory syndrome coronavirus, UniProt P59637).
Assay: not given
Conditions: read-out: MTT IC50; inhibition of E-protein induced cytotoxicity, HEK293, 4 days after transfection, corrected for pRK control; means ± SEM.
On to `CC(N)C12CC3CC(CC(C3)C1)C2` (stereo not shown) [Rimantadine, rimantadine, reference compound], for which the IC50 was found to be 15.9 µM.

As for `Oc1ccc(/C=C/c2cc(O)cc(O)c2)cc1` [Resveratrol, resveratrol], the IC50 came to 11 µM.

Consider `N=C(N)NC(=O)c1nc(Cl)c(N2CCCCCC2)nc1N` [HMA, 5-(N,N-hexamethylene)amiloride], for which the IC50 was 2.4 µM. Regarding `O=c1cc(-c2ccc(O)cc2)oc2cc(O)cc(O)c12` [Apigenin, apigenin], the IC50 worked out at 6.6 µM. The same measure, in the same setting: with `O=c1c(O)c(-c2ccc(O)cc2)oc2cc(O)cc(O)c12` [Kaempferol, kaempferol] the figure was 6.1 µM; with `CCCCCCC[C@H](O)CC(=O)CCc1ccc(O)c(OC)c1` [8-Gingerol, 8-gingerol], 69 µM; with `COc1ccc(-c2cc(=O)c3c(OC)c(OC)c(OC)c(OC)c3o2)cc1OC` [Nobiletin, nobiletin], 55.1 µM. On the same count and under the same terms, with `O=C(O[C@@H]1Cc2c(O)cc(O)cc2O[C@@H]1c1cc(O)c(O)c(O)c1)c1cc(O)c(O)c(O)c1` [EGCG, epigallocatechin gallate] the figure was 2.9 µM. On the same count and under the same terms, with `O=C1C[C@@H](c2ccc(O)cc2)Oc2cc(O)cc(O)c21` [Naringenin, naringenin] the figure was 51 µM; with `O=c1c(O)c(-c2ccc(O)c(O)c2)oc2cc(O)cc(O)c12` [Quercetin, quercetin], 2 µM; with `CCCCC[C@H](O)CC(=O)CCc1ccc(O)c(OC)c1` [6-Gingerol, 6-gingerol], 48 µM.

In a further assay the target is T1, SARS CoV E protein. Kind of assay: Whole-cell patch clamp of proton currents in permeant ion-reduced NMDG buffer, pH 5.5. The conditions noted are these: read-out: patch clamp IC50, HEK293, NMDG-HEPES-MES buffer, pH 5.5, holding potential -60 mV. A general note: The patch-clamp technique gives a direct electrical read-out from membranes.
Consider `CC(N)C12CC3CC(CC(C3)C1)C2` (stereo not shown) [Rimantadine, rimantadine, reference compound], for which the IC50 was found to be 0.0015 µM. On to `N=C(N)NC(=O)c1nc(Cl)c(N2CCCCCC2)nc1N` [HMA, 5-(N,N-hexamethylene)amiloride], for which the IC50 amounted to 0.00014 µM.

The IC50 is the concentration that gives 50% inhibition.
